Assay results published in patent US4181732A, “1-Branched-alkylcarbonyl-3-(3,5-dihalophenyl)imidazolidine-2,4-diones” (Sumitomo Chemical Company, Limited, priority 1977, dated 1980).

Key:
[1] = system: black spot of pear (Alternaria kikuchiana); assay: Protective activity test on black spot of pear; format: in vivo; details: 500 ppm active ingredient; pear var. 20-Seiki, sprayed 7 days before inoculation; no treatment 77.8
[2] = system: Alternaria leaf spot of apple (Alternaria mali); assay: Protective activity test on Alternaria leaf spot of apple; format: in vivo; details: 500 ppm active ingredient; apple var. Indo, sprayed 6 days before inoculation; no treatment 79.6

**Q.** `O=C1C2CC=CCC2C(=O)N1SC(Cl)(Cl)C(Cl)Cl` (centres unmarked) was tested. Which Disease severity [1] did it give?
**A.** Its Disease severity is 24.2%.

**Q.** What about the Disease severity [2] of the same molecule?
**A.** The Disease severity was 27.1%.
